Assay results as given in article PMC11717252, “Biophysical and biochemical evidence for the role of acetate kinases (AckAs) in an acetogenic pathway in pathogenic spirochetes” (PLOS ONE, 2025).

Columns and labels:
CC(=O)OP(=O)(O)O = experiment: purified protein; conditions: ATP-forming direction, co-substrate ADP, 20 mM MgCl2, pH 7.5, 37 °C
[1] = tested on: Nc1ncnc2c1ncn2[C@@H]1O[C@H](COP(=O)(O)OP(=O)(O)O)[C@@H](O)[C@H]1O; experiment: purified protein; conditions: ATP-forming direction, co-substrate acetyl phosphate, 20 mM MgCl2, pH 7.5, 37 °C

Row | Substance | Km (CC(=O)OP(=O)(O)O) [mM] | kcat (CC(=O)OP(=O)(O)O) [s⁻¹] | kcat/Km (CC(=O)OP(=O)(O)O) [M⁻¹ s⁻¹] | Km [1] [mM] | kcat [1] [s⁻¹] | kcat/Km [1] [M⁻¹ s⁻¹]
1 | TV0924 (TREVI0001_0924; rTV0924; TvAckA) (Treponema vincentii ATCC 35580; N7A) | 0.125 ± 0.016 | 11.2 | 88000 | 1.10 ± 0.05 | 13.4 | 11900
2 | TV0924 (TREVI0001_0924; rTV0924; TvAckA) (Treponema vincentii ATCC 35580; H180A) | 18.6 ± 1.4 | 98 | 5300 | – | – | –
3 | TV0924 (TREVI0001_0924; rTV0924; TvAckA) (Treponema vincentii ATCC 35580; R91A) | 4.0 ± 1.1 | 3.2 | 730 | 0.49 ± 0.02 | 2.8 | 5500
4 | TV0924 (TREVI0001_0924; rTV0924; TvAckA) (Treponema vincentii ATCC 35580; E388A) | 0.155 ± 0.012 | 0.329 | 2040 | 1.7 ± 0.2 | 0.46 | 260
5 | TV0924 (TREVI0001_0924; rTV0924; TvAckA) (Treponema vincentii ATCC 35580; R241A) | 2.38 ± 0.15 | 9.54 | 3900 | 0.44 ± 0.04 | 8.52 | 18700
